Compound potency records, mixed from different reports. Data source: NIAID ChemDB in PubChem.

All rows: whole-cell or culture tests; species: Herpes simplex virus 2

ECn: concentration that inhibits the pathogen or its effect by n%.

compound | measure | strain or isolate | cells | method | value
O=c1[nH]c(=O)n([C@@H]2C[C@H](CO)C[C@H]2CO)cc1I | EC50 | G | E6SM |  | >100 µg/mL
Nc1nc(=S)n([C@@H]2O[C@H](CO)[C@@H](O)[C@@H]2O)cc1Br | EC50 | G | MRC-5 | plaque count | 178 µM
Nc1nc(=O)n([C@@H]2O[C@H](CO)[C@@H](O)[C@@H]2F)cc1I | EC50 | K979 | HEP-2 | cytopathic effect | <0.03 µg/mL
CC(=O)OCCOCN1C(=O)C=CN(COCCO)S1(=O)=O | EC50 | LYONS | E6SM |  | >400 µg/mL
CCOc1ccc(-c2c3cc(O)c(=O)cc-3oc3cc(O)c(O)cc23)cc1 | EC50 | Clinical isolate | VERO | plaque count | 3.93 µM
Nc1ncc2ncn(/C=C3/CC3CO)c2n1 | EC50 |  |  | ELISA | >100 µM
NS(=O)c1ncnc2c1ncn2[C@@H]1O[C@H](CO)[C@@H](O)[C@@H]1O | EC50 |  |  | cytopathic effect | >320 µM
Brc1ccc(-c2cc3ccccn3c2)cc1 | EC50 | 186 | VERO | plaque count | >100 µM
CC(=O)NC(CCc1ccc(Cl)c(Cl)c1)c1cccc(O)c(=O)c1 | EC50 | Clinical isolate | VERO | plaque count | 1.07 µM
CC(=O)OCC(CO)CCn1cnc2c(=O)[nH]c(N)nc21 | EC50 | MS | VERO | plaque count | 31 µM
O=C1C=CN(COCCO)S(=O)(=O)N1COCCO | EC50 | LYONS | E6SM |  | >400 µg/mL
c1csc(-c2cc3ccccn3c2)c1 | EC50 | 186 | VERO | plaque count | >100 µM
C=C(N=CC)c1nc(-c2cccc(OC)c2)n(C2O[C@H](CO)[C@@H](O)[C@H](O)[C@H]2O)n1 | EC50 | G | E6SM | cytopathic effect | 300 µg/mL
Cc1c(-c2ccc(F)cc2)[nH]c2nc3c(ncn3COCCO)c(=O)n12 | EC50 | LYONS | HEL | cytopathic effect | 1.92 µg/mL
O=c1[nH]c(=O)n([C@H]2C[C@H](O)[C@@H](CO)O2)cc1I | MIC | BROD |  |  | 11 µg/mL
O=c1[nH]c(=S)n([C@H]2C[C@H](O)[C@@H](CO)O2)cc1Cl | EC50 | G | MRC-5 | plaque count | 72.1 µM
CCc1cn([C@H]2C[C@H](O)[C@@H](CO)O2)c(=O)[nH]c1=O | EC50 | MS | HFF | cytopathic effect | >170 µM
Nc1ccn(CC[C@H](O)CCO)c(=O)n1 | EC50 | 196 | E6SM | cytopathic effect | >400 µg/mL
c1ccn2cc(-c3cncs3)cc2c1 | EC50 | 186 | VERO | plaque count | >100 µM
Nc1nc2c(ncn2COCCO)c(=O)[nH]1 | EC50 | T33301 acyclovir-susceptible | HFF | cytopathic effect | 0.5 µg/mL
Nc1ccn([C@@H]2C=C(CO)[C@@H](O)[C@H]2O)c(=O)n1 | EC50 | G | PRK | cytopathic effect | 200 µg/mL
N#Cc1ccn2cc(-c3ccccc3)cc2c1 | EC50 | 186 | VERO | plaque count | >100 µM
O=c1[nH]c(=O)n([C@H]2C[C@H](O)[C@@H](CO)O2)cc1/C=C/Br | EC50 | LYONS | PRK | cytopathic effect | 3.1 µg/mL
O=C(NCCc1ccccc1)C1=Cc2ccncc2CC1 | EC50 | E194 | HFF | plaque count | 292 µM
CC=NC(=N)c1nc(-c2ccc(C)cc2)n(C/C=C/c2ccccc2)n1 | EC50 | G | E6SM | cytopathic effect | >4 µg/mL
CC(=O)c1ccc2cc(-c3ccccc3)cn2c1 | EC50 | 186 | VERO | plaque count | >100 µM
CC=NC(=N)c1nc(-c2ccc(OC)cc2)n(COCCO)n1 | EC50 | G | E6SM | cytopathic effect | >200 µg/mL
CCCCCCCCCCCCCCCC(=O)OCC(CO)CCn1cnc2c(=O)[nH]c(N)nc21 | EC50 | MS | VERO | plaque count | 128 µM
CO[C@H](CO)[C@@H](O)CCn1cnc2c(=O)[nH]c(N)nc21 | EC50 | LYONS | E6SM | cytopathic effect | >400 µg/mL
CNc1ncnc2c1ncn2[C@@H]1S[C@H](CO)C[C@@H]1N=[N+]=[N-] | EC50 |  |  |  | >100 µg/mL
Nc1nc(=O)n(C2CC(O)C(CO)O2)cc1CCCl | EC50 | LYONS | PRK | cytopathic effect | 5 µg/mL
[N-]=[N+]=N[C@H]1C[C@@H](CO)S[C@H]1n1ccc(N)nc1=O | EC50 |  |  |  | >100 µg/mL
O=c1ccn([C@@H]2C[C@H](CO)C[C@H]2CO)c(=O)[nH]1 | EC50 | G | E6SM |  | >100 µg/mL
CCOC(=O)C1=CN(COCCOC(C)=O)S(=O)(=O)N=C1N | EC50 | LYONS | E6SM |  | >400 µg/mL
CC(C)[C@H](N)C(=O)OCC(COC(=O)[C@@H](N)C(C)C)OCn1cnc2c(=O)[nH]c(N)nc21 | EC50 |  | HFF | plaque count | 0.44 µM
CC1(C)OC2C(O1)[C@@H](COS(=O)(=O)NC(=O)OC(COCc1ccccc1)OCc1ccccc1)O[C@H]2n1ccc(=O)[nH]c1=O | EC50 |  | VERO | virus yield | 54 µg/mL
CCc1nc(-n2c(-c3ccccc3)nc3ccc(Br)cc3c2=O)nc(N)c1-c1ccc(Cl)cc1 | EC50 | G | E6SM | cytopathic effect | >16 µg/mL
O=c1[nH]c(=O)n(C2CC(O)C(CO)O2)cc1CCCCl | EC50 | 196 | PRK | cytopathic effect | 17 µg/mL
CCc1nc(-n2c(C)nc3ccc(Br)cc3c2=O)nc(N)c1-c1ccc(Cl)cc1 | EC50 | G | E6SM | cytopathic effect | >16 µg/mL
O=C(O)c1cccn2cc(-c3ccccc3)cc12 | EC50 | 186 | VERO | plaque count | >100 µM
Cc1c(-c2ccc(C(F)(F)F)cc2)[nH]c2nc3c(ncn3COCCO)c(=O)n12 | EC50 | G | HEL | cytopathic effect | 9.6 µg/mL
CC(=O)OCCOCN1C(=N)/C(=C(\C)O)C(N)=NS1(=O)=O | EC50 | G | E6SM |  | >400 µg/mL
CO[C@H](CO)[C@@H](O)CCn1cnc2c(N)ncnc21 | EC50 | LYONS | E6SM | cytopathic effect | >400 µg/mL
O=c1[nH]c(=O)n([C@H]2C[C@H](O)[C@@H](CO)O2)cc1I | EC50 | K979 | HEP-2 | cytopathic effect | <0.3 µg/mL
c1ccn2cc(-c3ccoc3)cc2c1 | EC50 | 186 | VERO | plaque count | >100 µM
CC(C)[C@H](N)C(=O)NCC(=O)OCC(COC(=O)CNC(=O)[C@@H](N)C(C)C)OCn1cnc2c(=O)[nH]c(N)nc21 | EC50 |  | HFF | plaque count | 0.25 µM
COC(=O)c1cccn2cc(-c3ccccc3)cc12 | EC50 | 186 | VERO | plaque count | >100 µM
Nc1nc2c(ncn2CCC(CO)CO)c(=O)[nH]1 | EC50 | 186 (TK-) | MRC-5 | plaque count | 230 µg/mL
Cc1cn([C@@H]2C[C@](O)(CO)CO2)c(=O)[nH]c1=O | EC50 |  | CCL18 |  | >100 µM
CC=NC(=N)c1nc(-c2cccc(OC)c2)n(Cc2ccccc2)n1 | EC50 | G | E6SM | cytopathic effect | >10 µg/mL
CC(=O)OCCOCN1C=C(C#N)C(N)=NS1(=O)=O | EC50 | LYONS | E6SM |  | >400 µg/mL
NSc1ncnc2c1ncn2[C@H]1C[C@H](O)[C@@H](CO)O1 | EC50 |  |  | cytopathic effect | >320 µM
CC(N=[N+]=[N-])c1cn([C@H]2C[C@H](O)[C@@H](CO)O2)c(=O)[nH]c1=O | EC50 | MS | HFF | cytopathic effect | >100 µM
Cc1nc2ccc(Br)cc2c(=O)n1-c1nnc(-c2cccc(Cl)c2Cl)c(N)n1 | EC50 | G | E6SM | cytopathic effect | >3.2 µg/mL
Cc1cn([C@@H]2O[C@H](CO)[C@@H](O)[C@@H]2F)c(=O)[nH]c1=O | EC50 | K979 | HEP-2 | cytopathic effect | <0.1 µg/mL
Nc1ccn([C@@H]2OCC(CO)=C2F)c(=O)n1 | EC50 |  |  |  | >100 µg/mL
CCCCCCCCCCCCCCCCOC(=O)NS(=O)(=O)OC[C@H]1O[C@@H](n2ccc(=O)[nH]c2=O)C2OC(C)(C)OC21 | EC50 |  | VERO | virus yield | 25 µg/mL
Nc1ccn(C[C@@H](CO)OCP(=O)(O)O)c(=O)n1 | EC50 |  | MRC-5 |  | 14.3 µM
C=C1[C@H](CO)[C@H]1Cn1cnc2c(Cl)nc(N)nc21 | EC50 |  |  |  | >100 µM
N#CC1=CN(COCCO)S(=O)(=O)N=C1N | EC50 | LYONS | E6SM |  | >400 µg/mL
C=C(N=CC)c1nc(-c2cccc(C)c2)n([C@@H]2O[C@H](CO)[C@@H](O)[C@H]2O)n1 | EC50 | G | E6SM | cytopathic effect | >200 µg/mL
Nc1ccn([C@@H]2O[C@H](CO)[C@@H](O)[C@@H]2O)c(=O)n1 | EC50 | Strain 196 | Primary rabbit kidney cells | cytopathic effect | 0.04 µg/mL
Nc1nc2c(ncn2CCCCO)c(=O)[nH]1 | EC50 | 91075 | VERO | plaque count | 8 µM
CC(C)=CCc1ccc(O)c(=O)cc1C(C)C | EC50 | Clinical isolate | VERO | plaque count | 0.22 µM
CC1(C)OCC2(CO[C@@H](n3ccc(NC(=O)c4ccccc4)nc3=O)C2)O1 | EC50 |  | CCL18 |  | >100 µM
[N-]=[N+]=N[C@@H]1C[C@@H](CO)S[C@@H]1n1cnc2c(Cl)ncnc21 | EC50 |  |  |  | >100 µg/mL
C=C1[C@H](CO)[C@H]1Cn1cnc2c(=O)[nH]cnc21 | EC50 |  |  |  | >100 µM
NS(=O)(=O)c1ncnc2c1ncn2[C@@H]1O[C@H](CO)[C@@H](O)[C@@H]1O | EC50 |  |  | cytopathic effect | >320 µM
Nc1nc2c(ncn2[C@@H]2C=C[C@H](CO)CC2)c(=O)[nH]1 | EC50 |  |  |  | 0.1–1 µM
COc1ccc(-c2[nH]c3nc4c(ncn4COCCO)c(=O)n3c2C)cc1 | EC50 | LYONS | HEL | cytopathic effect | 1.92 µg/mL
Cc1cn([C@H]2CC3(CO2)COC(C)(C)O3)c(=O)[nH]c1=O | EC50 |  | CCL18 |  | >100 µM
C=C1[C@H](CO)[C@@H](O)C[C@@H]1n1cnc2c(=O)[nH]c(N)nc21 | EC50 |  | WI-38 | plaque count | 5.8 µM
Nc1ncnc2c1ncn2C[C@@H](CO)OCP(=O)(O)O | EC50 | G | ESM | cytopathic effect | 0.02 µg/mL
COc1ccccc1CNC(=O)C1=Cc2ccncc2CC1 | EC50 | E194 | HFF | plaque count | 42.4 µM
C=C(N=CC)c1nc(-c2ccc(OC)cc2)n(C2O[C@H](CO)[C@@H](O)[C@H](O)[C@H]2O)n1 | EC50 | G | E6SM | cytopathic effect | >200 µg/mL
C=C(C)[C@@H]1CCc2c(O)c(O)c(=O)cc(C)c2C1 | EC50 | Clinical isolate | HFF | plaque count | 0.55 µM
CNc1ncnc2c1ncn2[C@H]1S[C@@H](CO)C[C@@H]1N=[N+]=[N-] | EC50 |  |  |  | >100 µg/mL
O=c1[nH]cnc2c1ncn2C1C[C@H](CO)[C@@H](CO)C1 | EC50 | G | E6SM |  | >100 µg/mL
O=c1[nH]c(=O)n([C@H]2C[C@H](O)[C@@H](CO)O2)cc1I | EC50 | Strain 196 | Primary rabbit kidney cells | cytopathic effect | 0.7 µg/mL
O=c1ccn([C@@H]2C[C@](O)(CO)CO2)c(=O)[nH]1 | EC50 |  | CCL18 |  | >100 µM
O=c1c2ncn(COC(CO)CO)c2nc2[nH]c(-c3ccc(C(F)(F)F)cc3)cn12 | EC50 | G | HEL | cytopathic effect | 9.6 µg/mL
Nc1nc2c(ncn2[C@@H]2C[C@H](CO)[C@H]2CO)c(=O)[nH]1 | EC50 | 186 | WI-38 | plaque count | 0.04 µM
Nc1ccn([C@@H]2O[C@H](CO)[C@@H](O)[C@H]2O)c(=S)n1 | EC50 | G | MRC-5 | plaque count | >386 µM
C=C1[C@H](CO)[C@H]1Cn1cnc2c(N)ncnc21 | EC50 |  |  |  | >100 µM
Nc1ncc2c(ncn2/C=C2\CC2CO)n1 | EC50 |  |  | ELISA | >100 µM
Nc1ccn(C[C@@H](CO)OCP(=O)(O)O)c(=O)n1 | EC50 | G | MRC-5 | plaque count | 18–25 µg/mL

The first 11 rows once more:

compound	measure	strain or isolate	cells	method	value
O=c1[nH]c(=O)n([C@@H]2C[C@H](CO)C[C@H]2CO)cc1I	EC50	G	E6SM		>100 µg/mL
Nc1nc(=S)n([C@@H]2O[C@H](CO)[C@@H](O)[C@@H]2O)cc1Br	EC50	G	MRC-5	plaque count	178 µM
Nc1nc(=O)n([C@@H]2O[C@H](CO)[C@@H](O)[C@@H]2F)cc1I	EC50	K979	HEP-2	cytopathic effect	<0.03 µg/mL
CC(=O)OCCOCN1C(=O)C=CN(COCCO)S1(=O)=O	EC50	LYONS	E6SM		>400 µg/mL
CCOc1ccc(-c2c3cc(O)c(=O)cc-3oc3cc(O)c(O)cc23)cc1	EC50	Clinical isolate	VERO	plaque count	3.93 µM
Nc1ncc2ncn(/C=C3/CC3CO)c2n1	EC50			ELISA	>100 µM
NS(=O)c1ncnc2c1ncn2[C@@H]1O[C@H](CO)[C@@H](O)[C@@H]1O	EC50			cytopathic effect	>320 µM
Brc1ccc(-c2cc3ccccn3c2)cc1	EC50	186	VERO	plaque count	>100 µM
CC(=O)NC(CCc1ccc(Cl)c(Cl)c1)c1cccc(O)c(=O)c1	EC50	Clinical isolate	VERO	plaque count	1.07 µM
CC(=O)OCC(CO)CCn1cnc2c(=O)[nH]c(N)nc21	EC50	MS	VERO	plaque count	31 µM
O=C1C=CN(COCCO)S(=O)(=O)N1COCCO	EC50	LYONS	E6SM		>400 µg/mL

Blank or dashed fields: not listed here. Rows are shuffled and stem from different studies. Two numbers with a dash give a range or band.